Anti-infective test results gathered from many reports (values: NIAID ChemDB through PubChem).

Shared fields: whole-cell or culture tests; organism: Candida albicans

Neighbouring rows are from separate reports. An empty or dashed field is not shown. ECn is the concentration giving n% inhibition of infection, replication or growth. A number after MIC or MFC names an inhibition level or a share of isolates.

structure,read-out,method,strain or isolate,result
Clc1ccc(CC(c2cccs2)n2ccnc2)c(Cl)c1,MIC,-,-,>37 µM
N=C(N)c1ccc(O)cc1,MIC80,-,A39,>100 µg/mL
CCCCNC(=S)C(C#N)c1nc2ccccc2o1,MIC,-,-,>200 µg/mL
C(=C\c1ccccc1)/CNc1cccc(Cn2ccnc2)c1,MIC,-,CDC385,>100 µg/mL
COC1CC2CCC(C)C(O)(O2)C(=O)C(=O)N2CCCCC2C(=O)OC(C(C)CC2CCC(O)C(C)C2)CC(=O)C(C)/C=C(\C)C(O)C(O)C(=O)C(C)CC(C)/C=C/C=C/C=C/1C,MIC,-,ATCC11651,0.3125 µg/mL
CC(=O)O[C@H]1CC[C@@]2(C)C(=CCC3C4CCC(C(=O)/C=C/c5cc(F)cc(F)c5F)[C@@]4(C)CCC32)C1,MIC,turbidity,MTCC 183,350 µg/mL
C[C@@H](n1ccnn1)[C@@](O)(Cn1cncn1)c1ccc(F)cc1F,MIC,-,TA,>100 µg/mL
Cc1cnc(Nc2ccc(Cl)cc2)nc1Nc1ccc(Cl)cc1,EC50,-,-,0.92 µg/mL
O=C(N/N=C/c1ccc(F)cc1)c1ccc(CNc2nc3ccccc3[nH]2)cc1,MIC,broth dilution,-,50 µg/mL
CCCOc1ccc(SCC#CCN2CCOCC2)cc1,EC50,-,CNCM 1180-79,78 µg/mL
Cc1[nH]n(-c2ccccc2)c(=O)c1N=Nc1ccc(-c2n[nH]c(=S)o2)cc1,MIC,-,ATCC 2091,62.5 µg/mL
Clc1ccc(CNc2ccccc2Cn2ccnc2)cc1,MIC,-,CDC385,0.18 µg/mL
O=C(N[C@H](CO)[C@H](O)c1ccc([N+](=O)[O-])cc1)C(Cl)Cl,EC50,-,-,>100 µg/mL
C[C@H](n1ccnn1)[C@](O)(Cn1cncn1)c1ccc(F)cc1,MIC,-,TA,25 µg/mL
C(=C\c1ccccc1)/CNc1ccc(Cn2ccnc2)cc1,MIC,-,CDC385,50 µg/mL
CCOc1ccc(SCC#CCN2CCN(C)CC2)cc1,EC50,-,CNCM 1180-79,78 µg/mL
COc1ccc(-c2oc3cc(OC)cc(O)c3c(=O)c2OC)cc1,MIC,-,ATCC 10231,12.5 µg/mL
Cc1[nH][nH]c(=O)c1N=Nc1ccc(-c2n[nH]c(=S)n2-c2ccccc2)cc1,MIC,-,ATCC 2091,62.5 µg/mL
C(/C=C/c1ccccc1)=Nc1ccc(CN2CCOCC2)cc1,MIC,-,CDC385,>100 µg/mL
CN1O[C@H](c2ccc(Cl)cc2)CC1(Cn1ccnc1)c1ccco1,MIC,-,ATCC26232,20 µg/mL
Clc1ccc(COC(Cn2ccnc2)c2ccc(Cl)cc2Cl)c(Cl)c1,MIC,-,-,110.8 µg/mL
c1noc2c1CCCCCC2,MIC,-,-,25 µg/mL
Cc1[nH]n(CCO)c(=O)c1N=Nc1ccc(C(=O)N/N=C/c2ccc(F)cc2)cc1,MIC,-,ATCC 2091,500 µg/mL
COc1cc(O)c2c(=O)cc(-c3ccc(OC)c(OC)c3)oc2c1,MIC,-,ATCC 10231,6.25 µg/mL
CCCCOc1ccc(SCC#CCN2CCOCC2)cc1,EC50,-,CNCM 1180-79,<78 µg/mL
N=C(N)c1ccc2nc(CCCCc3nc4ccc(C(=N)N)cc4[nH]3)[nH]c2c1,MFC,-,A39,>100 µg/mL
O=C(O)c1c(Br)c(Br)c(Br)c(Br)c1S(=O)(=O)Nc1ccc2c(c1)Sc1ccccc1O2,MIC,-,C316,16 µg/mL
CC(=O)c1cc2c(nc1C)CCCCCC2,MIC,-,-,25 µg/mL
CCCCCCCCOc1ccc(C(=O)NC2C[C@@H](O)[C@@H](O)NC(=O)C3[C@@H](O)[C@@H](C)CN3C(=O)C(C(C)O)NC(=O)C([C@H](O)[C@@H](O)c3ccc(O)cc3)NC(=O)C3C[C@@H](O)CN3C(=O)C(C(C)O)NC2=O)cc1,MIC,-,86-21B,0.25 µg/mL
O=C(O)c1ccc(/C=N/NC(=O)c2ccc(CNc3nc4ccccc4[nH]3)cc2)cc1,MIC,broth dilution,-,25 µg/mL
Cc1[nH]n(-c2ccccc2)c(=O)c1N=Nc1ccc(C(=O)N/N=C/c2ccc(F)cc2)cc1,MIC,-,ATCC 2091,125 µg/mL
N#C/C(=C\c1ccc2c(c1)OCO2)c1nc2ccccc2o1,MIC,-,-,>200 µg/mL
N=C(N)c1ccc2nc(-c3cccc(-c4nc5ccc(C(=N)N)cc5[nH]4)n3)[nH]c2c1,MFC,-,A39,>100 µg/mL
O=[N+]([O-])c1ccccc1Cn1ccnc1,MIC,-,CDC385,100 µg/mL
N=C(N)c1ccc2nc(CCCc3nc4ccc(C(=N)N)cc4[nH]3)[nH]c2c1,MIC80,-,A39,>100 µg/mL
CCOc1ccc(/C=N/NC(=O)c2ccc(CNc3nc4ccccc4[nH]3)cc2)cc1,MIC,broth dilution,-,50 µg/mL
CN1O[C@@H](c2ccc(Cl)cc2)CC1(Cn1ccnc1)c1ccco1,MIC,-,ATCC26232,20 µg/mL
Clc1ccc(CC(c2ccc(Cl)s2)n2ccnc2)c(Cl)c1,MIC,-,-,18 µM
CN1O[C@H](c2cccc([N+](=O)[O-])c2)CC1(Cn1ccnc1)c1ccco1,MIC,-,ATCC26232,>20 µg/mL
Cn1ccc(C(Cc2ccc([N+](=O)[O-])cc2)n2ccnc2)c1,MIC,-,-,>300 µM
C=C[C@@]1(C)CC[C@@]2(O)C3=C1C=C(C#N)C(C)(C)c1[nH]c4cccc(c4c13)C2(C)C,MIC,broth dilution,-,32.9 µM
OC(Cn1cncn1)(Cn1cncn1)c1ccc(F)cc1F,MIC,turbidity,MTCC 183,150 µg/mL
Cc1cnc(Nc2ccccc2)nc1Nc1ccccc1,EC50,-,-,9 µg/mL
NC(=NC1CCCC1)c1ccc(-c2ccc(-c3ccc(C(N)=NC4CCCC4)cc3)o2)cc1,MFC,-,Isolate 2370 fluconazole-resistant,25 µg/mL
Cn1ccc(C(Cc2ccc(Cl)cc2Cl)n2ccnc2)c1,MIC,-,-,>300 µM
C[C@H](n1ccnn1)[C@@](O)(Cn1cncn1)c1ccccc1F,MIC,-,TA,25 µg/mL
C(/C=C/c1ccccc1)=Nc1cccc(CN2CCOCC2)c1,MIC,-,CDC385,50 µg/mL
CCCOc1ccc(SCC#CCN2CCCCC2)cc1,EC50,-,CNCM 1180-79,78 µg/mL
Nc1c(-c2nc3ccccc3o2)sc(=S)n1-c1ccccc1,MIC,-,-,>200 µg/mL
Cn1ccc(C(Cc2ccc(Cl)cc2)n2ccnc2)c1,MIC,-,-,>300 µM
C=C[C@]1(C)C2=C3c4c([nH]c5cccc(c45)C(C)(C)[C@H]3C[C@H]1Cl)C(C)(C)C(C#N)=C2,MIC,broth dilution,-,>100 µM
C(=C\c1ccccc1)/CNc1cccc(CN2CCOCC2)c1,MIC,-,CDC385,100 µg/mL
COc1ccc(-c2cc(=O)c3c(O)c([C@@H]4O[C@H](CO)[C@@H](O)[C@H](O)[C@H]4O)c(O)cc3o2)cc1O,MIC,broth dilution,ATCC 18804,125 µg/mL
C=CCn1c(-c2ccc(N=Nc3c(C)[nH][nH]c3=O)cc2)n[nH]c1=S,MIC,-,ATCC 2091,62.5 µg/mL
CCOc1ccc(SCC#CCN2CCCCC2)cc1,EC50,-,CNCM 1180-79,78 µg/mL
O=S(=O)(Nc1ccc2c(c1)Sc1ccccc1O2)C(F)(F)F,MIC,-,C316,33 µg/mL
CC(/C=C/C=C(\C)C(O)C(C)C(=O)O[C@H]1C[C@@H](C)C=C2C=C[C@]3(C)O[C@@H](O)CC(=O)[C@]3(C)[C@H]21)=C\C=C\C(=O)O,MIC,-,ATCC 10231,0.78 µg/mL
CC1=C(CCc2ccco2)[C@@]2(C)CCC[C@]3(C)C(=O)O[C@H](C1=O)C32,MIC,-,ATCC 10231,3.1 µg/mL
C[C@@H](n1ccnn1)[C@@](O)(Cn1cncn1)c1ccc(F)cc1,MIC,-,TA,>100 µg/mL
CC(=O)O[C@H]1CC[C@@]2(C)C(=CCC3C4CCC(C(=O)/C=C/c5ccc(F)cc5F)[C@@]4(C)CCC32)C1,MIC,turbidity,MTCC 183,350 µg/mL
O=C(N/N=C/c1ccc(O)cc1)c1ccc(CNc2nc3ccccc3[nH]2)cc1,MIC,broth dilution,-,50 µg/mL
CN(C)S(=O)(=O)Nc1ccc2c(c1)Sc1ccccc1O2,MIC,-,C316,10 µg/mL
O=C(N/N=C/c1ccc(Br)cc1)c1ccc(CNc2nc3ccccc3[nH]2)cc1,MIC,broth dilution,-,100 µg/mL
O=[N+]([O-])c1ccccc1S(=O)(=O)Nc1ccc2c(c1)Sc1ccccc1O2,MIC,-,C316,3 µg/mL
O=C(N/N=C/c1ccc(C(F)(F)F)cc1)c1ccc(CNc2nc3ccccc3[nH]2)cc1,MIC,broth dilution,-,25 µg/mL
C[C@@H](n1ccnn1)[C@@](O)(Cn1cncn1)c1ccccc1F,MIC,-,TA,>100 µg/mL
O=C(N/N=C/c1ccccc1)c1ccc(CNc2nc3ccccc3[nH]2)cc1,MIC,broth dilution,-,50 µg/mL
Cc1[nH]n(CCO)c(=O)c1N=Nc1ccc(-c2n[nH]c(=O)n2-c2ccccc2)cc1,MIC,-,ATCC 2091,62.5 µg/mL

The first 4 rows once more:

structure	read-out	method	strain or isolate	result
Clc1ccc(CC(c2cccs2)n2ccnc2)c(Cl)c1	MIC	-	-	>37 µM
N=C(N)c1ccc(O)cc1	MIC80	-	A39	>100 µg/mL
CCCCNC(=S)C(C#N)c1nc2ccccc2o1	MIC	-	-	>200 µg/mL
C(=C\c1ccccc1)/CNc1cccc(Cn2ccnc2)c1	MIC	-	CDC385	>100 µg/mL